Sequences of proteins named here, by UniProt entry; tags and fusion partners are left off. Residues count along the entry.
UniProt P06756, 31-1048, chain 1 of 2: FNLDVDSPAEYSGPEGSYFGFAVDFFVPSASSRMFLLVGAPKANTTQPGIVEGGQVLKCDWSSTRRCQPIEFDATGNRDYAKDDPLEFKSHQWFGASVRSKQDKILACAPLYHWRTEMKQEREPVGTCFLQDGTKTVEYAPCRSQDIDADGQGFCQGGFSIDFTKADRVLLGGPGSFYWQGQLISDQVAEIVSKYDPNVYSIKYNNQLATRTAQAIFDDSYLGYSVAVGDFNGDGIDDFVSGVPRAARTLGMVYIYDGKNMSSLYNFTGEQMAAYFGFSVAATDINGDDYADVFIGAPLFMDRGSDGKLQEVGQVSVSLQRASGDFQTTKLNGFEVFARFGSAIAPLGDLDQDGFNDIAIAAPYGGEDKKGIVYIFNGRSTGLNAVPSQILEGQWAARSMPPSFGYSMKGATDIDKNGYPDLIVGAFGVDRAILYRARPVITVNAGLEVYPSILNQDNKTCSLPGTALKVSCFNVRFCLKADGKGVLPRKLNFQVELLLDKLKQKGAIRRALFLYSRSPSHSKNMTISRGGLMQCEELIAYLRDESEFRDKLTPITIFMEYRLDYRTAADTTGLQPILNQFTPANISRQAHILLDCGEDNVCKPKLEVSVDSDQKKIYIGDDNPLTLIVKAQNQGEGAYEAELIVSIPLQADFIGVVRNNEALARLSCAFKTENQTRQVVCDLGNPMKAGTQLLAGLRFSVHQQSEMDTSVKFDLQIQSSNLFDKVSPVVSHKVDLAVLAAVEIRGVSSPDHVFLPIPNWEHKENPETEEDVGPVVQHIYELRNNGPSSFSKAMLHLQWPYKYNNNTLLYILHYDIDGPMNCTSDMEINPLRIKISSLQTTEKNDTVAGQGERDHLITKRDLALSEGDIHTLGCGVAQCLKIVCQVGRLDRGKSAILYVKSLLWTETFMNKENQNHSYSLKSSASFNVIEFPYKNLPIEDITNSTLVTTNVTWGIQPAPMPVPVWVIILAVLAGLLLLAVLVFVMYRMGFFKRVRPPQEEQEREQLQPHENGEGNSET

According to publication PMC7494911, “Translational pharmacology of an inhaled small molecule αvβ6 integrin inhibitor for idiopathic pulmonary fibrosis” (Nature Communications, 2020):

Target: αvβ6 integrin (human, on NHBE cells) (human (endogenous in NHBE cells)) (UniProt P06756)

Substance A20FMDV2 (peptide) has an inhibition of αvβ6-mediated TGFβ activation (pSmad2 levels in NHBE cells), IC50 of 3.5 nM and an inhibition of αvβ6-mediated TGFβ activation (pSmad2 levels in NHBE cells), pIC50 of 8.25 pIC50.
